Results of unrelated studies side by side (data: NIAID ChemDB).

Common to all: whole-cell or culture tests; organism: Candida albicans; read-out: MIC80

Rows are shuffled and stem from different studies.

smiles | strain | method | result
CN(CCOc1ccc(CC2SC(=O)N(CC(O)(Cn3nccn3)c3ccc(F)cc3F)C2=O)cc1)c1ccccn1 | CaCYP51 |  | 6.72 µg/mL
NC(=O)N/N=C/c1ccsc1/C=N/NC(N)=O | ATCC 66396 | turbidity / absorbance | >250 µg/mL
CN(CCCCOc1ccccc1)CC(O)(Cn1cncn1)c1ccc(F)cc1F |  |  | 0.04 µM
C[C@@H](c1ncncc1F)[C@](O)(Cn1cncn1)c1ccc(F)cc1F | OY-2-76 (FLU-S) |  | 0.03 µg/mL
CN(C)c1ccc(/C=C2\SC(=O)N(CC(O)(Cn3nccn3)c3ccc(F)cc3F)C2=O)cc1 | CaCYP51 |  | 2.06 µg/mL
OC(CN1CCCN(CCCOc2ccccc2)C1)(Cn1cncn1)c1ccc(F)cc1F |  |  | 2.19 µM
Cc1ccc(-c2c3c(N)c4c(nc3nc3c2c(C)nn3-c2ccccc2)CCC4)cc1 | ATCC 10231 | broth dilution / absorbance | 62.5 µg/mL
CC(O)Cn1cc(CN2CCN([C@H](C)[C@](O)(Cn3cncn3)c3ccc(F)cc3F)CC2)c2cccc(Cl)c21 | ATCC MYA-1003 | resazurin | 64 µg/mL
Oc1ccc2cc1Oc1ccc(cc1)CCc1ccc(c(O)c1)-c1c(O)cccc1CC2 | YEM30 | broth dilution | 16 µg/mL
C=CCc1ccc(Cn2cc(CN3CCN([C@H](C)[C@](O)(Cn4cncn4)c4ccc(F)cc4F)CC3)c3ccccc32)cc1 | ATCC 90028 | resazurin | 2 µg/mL
Cc1ccc(-c2c3c(N)c4c(nc3nc3c2c(C)nn3-c2ccccc2)CCCCC4)cc1 | ATCC 10231 | broth dilution / absorbance | 62.5 µg/mL
COc1c(O)cc2oc3c(O)cccc3c(=O)c2c1O | ATCC 663.90 |  | 62 µg/mL
OC(CN1CCN(c2ccc(OCc3ccncc3)cc2)CC1)(Cn1cncn1)c1ccc(F)cc1F | FHB1 |  | 1 µg/mL
CCCCCCCCCCC(=O)OC1CCN(CC(O)(Cn2cncn2)c2ccc(F)cc2F)CC1 | Y0109 | broth dilution | 0.508 µM
Cc1ccc(-c2c3c(N)c4c(nc3nc3c2c(C)nn3-c2ccccc2)CCCC4)cc1 | CCC 126 | broth dilution / absorbance | 31.2 µg/mL
CN=[N+]([O-])CC[C@H](N)C(=O)O | KB (azole-resistant) |  | 17 µg/mL
OC(Cn1cncn1)(Cn1cncn1)c1ccc(F)cc1F | TIMM3164 (azole-resistant) |  | 1 µg/mL
C[C@@H](N1CCN(Cc2cn(Cc3ccc(Cl)cc3)c3c(Cl)cccc23)CC1)[C@](O)(Cn1cncn1)c1ccc(F)cc1F | ATCC 64548 | resazurin | 0.125 µg/mL
O=C(/C=C/c1ccc(F)cc1)OC1CCN(CC(O)(Cn2cncn2)c2ccc(F)cc2F)CC1 | Y0109 | broth dilution | 0.005 µM
O=C1CSC(=O)N1CC(O)(Cn1nccn1)c1ccc(F)cc1F | CaCYP51 |  | 0.17 µg/mL
O=C(OC1CCN(CC(O)(Cn2cncn2)c2ccc(F)cc2F)CC1)C(F)(F)Cl | Y0109 | broth dilution | 2.222 µM
O=C1S/C(=C\c2ccccc2Br)C(=O)N1CC(O)(Cn1nccn1)c1ccc(F)cc1F | CaCYP51 |  | 1.92 µg/mL
COc1cc2c(=O)c3ccccc3oc2cc1O | ATCC 663.90 |  | 31 µg/mL
C[C@@H](N1CCN(Cc2cn(-c3ccc(F)cc3)c3ccccc23)CC1)[C@](O)(Cn1cncn1)c1ccc(F)cc1F | ATCC 64548 | resazurin | 0.125 µg/mL
COc1c(O)cc2oc3cc(O)cc(O)c3c(=O)c2c1OC | ATCC 663.90 |  | 62 µg/mL
N#Cc1ccc(/C=C/C(=O)OC2CCN(CC(O)(Cn3cncn3)c3ccc(F)cc3F)CC2)cc1 | Y0109 | broth dilution | 0.032 µM
O=C1S/C(=C\c2ccco2)C(=O)N1CC(O)(Cn1nccn1)c1ccc(F)cc1F | CaCYP51 |  | 0.15 µg/mL
OC(CN=C1CCN(CCCOc2ccccc2)CC1)(Cn1cncn1)c1ccc(F)cc1F |  |  | >136 µM
CCC(C)c1ccc(Cn2cc(CN3CCN([C@H](C)[C@](O)(Cn4cncn4)c4ccc(F)cc4F)CC3)c3ccccc32)cc1 | ATCC 36082 | resazurin | 8 µg/mL
O=C(/C=C/c1ccccc1Br)OC1CCN(CC(O)(Cn2cncn2)c2ccc(F)cc2F)CC1 | Y0109 | broth dilution | 0.114 µM
C[C@@H](N1CCN(Cc2cn(-c3ccc(F)cc3)c3cc(Cl)ccc23)CC1)[C@](O)(Cn1cncn1)c1ccc(F)cc1F | ATCC MYA-1003 | resazurin | >128 µg/mL
OC(CN=C1CCN(CCCCOc2ccccc2)CC1)(Cn1cncn1)c1ccc(F)cc1F |  |  | >132 µM
NC(=O)N/N=C/c1ccsc1.NC(=O)N/N=C/c1ccsc1.[Cl][Ni][Cl] | ATCC 66396 | turbidity / absorbance | 250 µg/mL
O=C1S/C(=C\c2ccccn2)C(=O)N1CC(O)(Cn1nccn1)c1ccc(F)cc1F | CaCYP51 |  | 2.25 µg/mL
C[C@@H](N1CCN(Cc2cn(Cc3ccc(F)cc3F)c3c(Cl)cccc23)CC1)[C@](O)(Cn1cncn1)c1ccc(F)cc1F | ATCC 90028 | resazurin | 0.125 µg/mL
CCC(C)n1ncn(-c2ccc(N3CCN(c4ccc(OC[C@H]5CO[C@](Cn6cncn6)(c6ccc(Cl)cc6Cl)O5)cc4)CC3)cc2)c1=O | Y0109 | broth dilution | 0.089 µM

Repeating the first 4 entries:

smiles	strain	method	result
CN(CCOc1ccc(CC2SC(=O)N(CC(O)(Cn3nccn3)c3ccc(F)cc3F)C2=O)cc1)c1ccccn1	CaCYP51		6.72 µg/mL
NC(=O)N/N=C/c1ccsc1/C=N/NC(N)=O	ATCC 66396	turbidity / absorbance	>250 µg/mL
CN(CCCCOc1ccccc1)CC(O)(Cn1cncn1)c1ccc(F)cc1F			0.04 µM
C[C@@H](c1ncncc1F)[C@](O)(Cn1cncn1)c1ccc(F)cc1F	OY-2-76 (FLU-S)		0.03 µg/mL

Blank or dashed fields: not listed here. MIC50, MIC90 and the like: level of inhibition, or share of isolates inhibited.